Results of unrelated studies side by side (data: NIAID ChemDB).

All rows: toxicity to cultured cells; endpoint: CC50

a–b is a range or a potency band.

smiles | cells | method | value
Nc1nc(Cl)c(-c2cc3ccccc3o2)c(N[C@@H]2C[C@H](CO)[C@@H](O)[C@H]2O)n1 | Con-1 | MTS | >25 µM
Brc1ccc2ncnc(Nc3ccc(N4CCOCC4)cc3)c2c1 | HUH 9B |  | >25 µM
CC(C)Nc1nc2cc(Cl)c(Cl)cc2n1[C@@H]1O[C@@H](C)[C@@H](O)[C@H]1O | MOLT-3 | ATP | 64 µM
COc1nc(=O)n([C@H]2C[C@H](O)[C@@H](CO)O2)cc1/C=C/Cl | PRK |  | 200 µg/mL
CCc1cccc(C)c1NS(=O)(=O)c1nc2nc(C)cc(C3CC3)n2n1 | K562 (CRL-1573) | WST | >128 µg/mL
CN(C)c1ccc(/C=C/C=N/n2cc(C(=O)O)c3ccccc3c2=O)cc1 | HEP-2/L-929/VERO |  | 150 µM
OCC1OC(n2c(Br)nc3cc(Cl)c(Cl)cc32)C(O)C1O | MOLT-3 | ATP | 62 µM
CC(C)N(Cc1cccc(OCCCCCC(=O)OC(=O)O)c1)C(=O)c1ccc(-c2ccc3[nH]ccc3c2)cc1 | BJ |  | >20 µM
O=C(O)c1cn(/N=C/C=C/c2ccccc2)c(=O)c2ccccc12 | HEP-2/L-929/VERO |  | 100 µM
FC(F)(F)c1cc(N2CCOCC2)ccc1Nc1ncnc2ccc(I)cc12 | HUH 9B |  | >25 µM
COc1ccc(C[C@H](N)C(=O)N[C@H]2[C@@H](O)[C@H](n3cnc4c(N(C)C)ncnc43)O[C@@H]2CO)cc1 | K562 (CRL-1573) | WST | 0.16 µg/mL
Cc1cc(C#N)cc(C)c1Oc1cc(Nc2ccc(C#N)cc2)nc2ccccc12 | HuCCA-1 | MTT | ≥50 µg/mL
CCNC(=O)c1ccc2ncnc(Nc3ccc(N4CCOCC4)cc3)c2c1 | HUH 9B |  | >25 µM
O=C(O)c1cn(/N=C/c2ccccc2Br)c(=O)c2ccccc12 | HEP-2/L-929/VERO |  | 30 µM
Nc1nc(N)c2cc3c(ccc4ccccc43)nc2n1 | HCT116 | MTT | 3.88 µM
CC[C@H](C)[C@H]1OC(=O)[C@H](C(C)C)N(C)C(=O)[C@@H]([C@@H](C)CC)OC(=O)[C@H](C(C)C)N(C)C(=O)[C@@H]([C@@H](C)CC)OC(=O)[C@H](C(C)C)NC1=O | NCI-H187 | absorbance | 2.29 µM
CCOC(=O)CCCCCOc1cccc(CN(C(=O)c2ccc(-c3cccnc3)cc2)C(C)C)c1 | RAJI |  | >20 µM
c1ccc(C2CC3(N4CCCCC4)CC(c4ccccc4)C2N(CCCN2CCCCC2)C3)cc1 | Rat skeletal myoblasts |  | 138.3 µM
O[C@@H]1[C@H](O)[C@H](O)CO[C@H]1n1c(Br)nc2cc(Cl)c(Cl)cc21 | MOLT-3 | ATP | 44 µM
CCOC(=O)CCCCCOc1cccc(CN(C(=O)c2ccc(-c3cccc(O)c3)cc2)C(C)C)c1 | BJ |  | >20 µM
Cc1csc(-c2ccc3ncnc(Nc4ccc(N5CCOCC5)cc4)c3c2)c1 | HUH 9B |  | >25 µM
Cc1cc(C=O)cc(C)c1Oc1cc(Oc2c(C)cc(C=O)cc2C)c2ccccc2n1 | MOLT-3 | XTT | 2.62 µg/mL
Cc1nc(Oc2ccc(CC(=O)NC(C)C)cc2)ccc1CN1CCC(N2C(=O)N(c3cc(C(N)=O)c(F)cc3F)C[C@H]2c2ccccc2)CC1 | HOS |  | 3.3 nM
CCCNc1ccccc1OCCCCC(=O)OCC | RAJI |  | >20 µM
CN1CCN(C(=O)c2ccc3nc4ccccc4c(NC4CCN(Cc5ccccc5)CC4)c3c2)CC1 | BHK |  | 150 µM
CCCN(Cc1ccc(OCC(=O)OCC)cc1)C(=O)c1ccc(-c2ccc3c(c2)OCO3)cc1 | BJ |  | >20 µM
CN1CCN(CCCN2CC3(N4CCN(C)CC4)CC(c4ccccc4)C2C(c2ccccc2)C3)CC1 | Rat skeletal myoblasts |  | 47.75 µM
CCOC(=O)CCCCCOc1cccc(CN(C(=O)c2ccc(-c3cccc(F)c3)cc2)C(C)C)c1 | HEK 293 |  | >20 µM
CN1CCN(CC(=O)NC2CC3(N4CCCCC4)CC(c4ccccc4)C2C(c2ccccc2)C3)CC1 | Rat skeletal myoblasts |  | 57.52 µM
CC(C)c1nc(Oc2ccc(S(C)(=O)=O)cc2)ccc1CN1CCC(N2C(=O)N(c3cc(C(N)=O)c(F)cc3F)C[C@H]2c2ccccc2)CC1 | HOS |  | 2.6 nM
O=Cc1ccc(C2(Nc3ccc(N4CCOCC4)cc3)N=CNc3ccccc32)o1 | HUH 9B |  | 10–25 µM
Cc1cc(C2CC2)n2nc(S(=O)(=O)Nc3ccccc3C(F)(F)F)nc2n1 | HEPG2 (HB-8065) | WST | >128 µg/mL
O=c1[nH]c(=O)n([C@H]2C[C@H](O)[C@@H](CO)O2)cc1/C=C/Br | PRK |  | 200 µg/mL
Cc1cc(C2CC2)n2nc(S(=O)(=O)Nc3c(C)ccc(Cl)c3C)nc2n1 | K562 (CRL-1573) | WST | 95 µg/mL
CCN(CC)C(=O)c1ccc2nc3ccccc3c(NCCc3c[nH]c4ccccc34)c2c1 | BHK |  | 125 µM
O=C(O)c1cn(/N=C/C=C/c2ccc([N+](=O)[O-])cc2)c(=O)c2ccccc12 | HEP-2/L-929/VERO |  | 150 µM
N#Cc1ccc(Nc2cc(Oc3ccc(C#N)cc3)c3ccccc3n2)cc1 | MOLT-3 | XTT | ≥50 µg/mL
FC(F)(F)c1cc(N2CCOCC2)ccc1Nc1ncnc2ccc(-c3cccs3)cc12 | HUH 9B |  | 10–25 µM
Cc1cc(S(C)(=O)=O)ccc1Oc1ccc(CN2CCC(N3C(=O)N(c4cc(C(N)=O)c(F)cc4F)C[C@H]3c3ccccc3)CC2)c(C)n1 | HOS |  | 5.4 nM
C[C@H]1O[C@H](n2c(Br)nc3cc(Cl)c(Cl)cc32)[C@@H](O)[C@H]1O | MOLT-3 | ATP | 80 µM
Nc1nc(N)c2cc3c(nc2n1)CCc1ccccc1-3 | PC-3 | MTT | 8.4 µM
CC1(C)CCC[C@]2(C)[C@H]3C[C@@H](C4=CCOC4=O)CC3=CC[C@@H]12 | P-388 | absorbance | 19.5 µM

Again, the opening 2 rows:

smiles	cells	method	value
Nc1nc(Cl)c(-c2cc3ccccc3o2)c(N[C@@H]2C[C@H](CO)[C@@H](O)[C@H]2O)n1	Con-1	MTS	>25 µM
Brc1ccc2ncnc(Nc3ccc(N4CCOCC4)cc3)c2c1	HUH 9B		>25 µM

Rows are shuffled and stem from different studies. CCn: concentration that lowers growth or viability of the cells by n%. Blank or dashed fields: not listed here.